Results from patent US20140099294.

Biological target: T1, GST-rat SV2C(454-579), GST-tagged recombinant intra-luminal fragment of SV2C, rat, Q9Z2I6 454-579
T1 sequence: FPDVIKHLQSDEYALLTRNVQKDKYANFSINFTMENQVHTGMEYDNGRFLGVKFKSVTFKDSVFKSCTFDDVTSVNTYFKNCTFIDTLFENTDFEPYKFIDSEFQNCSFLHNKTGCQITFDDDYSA

## rE (recombinant BoNT/E toxin in double chain form)
  result: no binding (tested: 100 nM)
